Laboratory results: PubChem BioAssay AID1224833 (University of Georgia, 2016)
Here is one part, drawn at random, of about 12,000 reagents tested. Of all reagents, about 5,600 (46%) were called active. 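Active calls cover z-scores past 1 in both directions, so they include lowered as well as raised rotavirus replication.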 Reagents against one gene are numbered here.

Purpose: 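Host factors restraining rotavirus as candidate antiviral genes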 (primary screen)
Cell system: monkey MA104 kidney cells
Reagent: siRNA pool against human genes, 50 nM
Time to read-out: 48 h knock-down before infection; read 24 h after infection
Conditions: infection with rotavirus strain RV3 two days after transfection; infectious dose for this stage not given
Measurement: 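Rotavirus antigen per well by fluorescent immunoassay, normalised to non-targeting control wells on each plate and given as a standard z-score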
Direction: z-score vs non-targeting control: higher = more rotavirus replication than with non-targeting control
Active means: In these data the active calls have z-score vs non-targeting control at about -1 or lower, or at about 1 or higher
Meaning of the calls: active = z-score beyond 1 either way; inactive = z-score within 1 of zero

| gene symbol | reagent | z-score vs non-targeting control | activity call |
| --- | --- | --- | --- |
| OLIG2 | 1 | -0.777 | inactive |
| GDF2 | 1 | 1.65 | active |
| SCX | 1 | 0.841 | inactive |
| DLL1 | 1 | -1.4 | active |
| EAF1 | 1 | -0.944 | inactive |
| CC2D2B | 1 | -0.636 | inactive |
| OR52N4 | 1 | 1.19 | active |
| CTXN1 | 1 | -0.796 | inactive |
| IQCJ | 1 | -0.747 | inactive |
| TAB2 | 1 | 0.113 | inactive |
| CGB2 | 1 | -0.249 | inactive |
| TMEM14B | 1 | 2.46 | active |
| SLC39A3 | 1 | -0.737 | inactive |
| SIMC1 | 1 | 0.509 | inactive |
| RALGPS2 | 1 | -0.777 | inactive |
| RUVBL1 | 1 | -1.22 | active |
| PHACTR1 | 1 | 0.22 | inactive |
| SYT14 | 1 | -0.887 | inactive |
| PANX2 | 1 | -0.734 | inactive |
| ENTREP1 | 1 | -0.344 | inactive |
| MAN1A2 | 1 | -1.4 | active |
| LCN10 | 1 | 0.203 | inactive |
| LGSN | 1 | -0.968 | inactive |
| IL6R | 1 | 0.822 | inactive |
| FTO | 1 | -0.92 | inactive |
| DDA1 | 1 | 0.434 | inactive |
| GAS7 | 1 | 0.527 | inactive |
| ZNF518A | 1 | 2.43 | active |
| SLC7A4 | 1 | -0.806 | inactive |
| CNTLN | 1 | -0.457 | inactive |
| OR52K2 | 1 | 1.51 | active |
| YJU2 | 1 | 1.58 | active |
| PAQR8 | 1 | 0.541 | inactive |
| SLC10A6 | 1 | -0.347 | inactive |
| YIPF7 | 1 | -0.51 | inactive |
| GBP4 | 1 | 2.26 | active |
| COL4A3 | 1 | -1.09 | active |
| CYTH1 | 1 | 0.304 | inactive |
| MLIP | 1 | -0.252 | inactive |
| OPN1MW2 | 1 | 0.946 | inactive |
| ACTL6B | 1 | -1.83 | active |
| NUCB2 | 1 | -0.135 | inactive |
| HMGCLL1 | 1 | 1.14 | active |
| TMEM47 | 1 | 0.26 | inactive |
| COG5 | 1 | 0.265 | inactive |
| HCFC2 | 1 | 1.76 | active |
| SERPINB10 | 1 | -0.342 | inactive |
| TMPRSS11F | 1 | 1.48 | active |
| PI16 | 1 | 0.181 | inactive |
| WHRN | 1 | 0.515 | inactive |
| MSL3 | 1 | 1.67 | active |
| SPARCL1 | 1 | 2.36 | active |
| FABP2 | 1 | -0.756 | inactive |
| SCAMP4 | 1 | 0.143 | inactive |
| HNMT | 1 | -1.58 | active |
| ZNF226 | 1 | -0.794 | inactive |
| TUBA3D | 1 | -0.272 | inactive |
| CHL1 | 1 | -0.786 | inactive |
| ZFP42 | 1 | -1.92 | active |
| OTX1 | 1 | 1.38 | active |
| GAB1 | 1 | 3.97 | active |
| SMAD4 | 1 | -1.26 | active |
| RUSC2 | 1 | -0.626 | inactive |
| DYNLRB2 | 1 | -1.34 | active |
| PAX6 | 1 | -0.898 | inactive |
| STRIP1 | 1 | -0.921 | inactive |
| MAGEA2 | 1 | 0.0386 | inactive |
| MEGF8 | 1 | -0.259 | inactive |
| ST8SIA3 | 1 | -0.697 | inactive |
| LINC01587 | 1 | 0.12 | inactive |
| DENND1C | 1 | -0.974 | inactive |
| OSTN | 1 | 0.947 | inactive |
| SLC35E1 | 1 | 0.94 | inactive |
| ASTL | 1 | -1.42 | active |
| FOXF2 | 1 | 0.721 | inactive |
| BBLN | 1 | -2.02 | active |
| PLN | 1 | -0.634 | inactive |
| MRPS25 | 1 | -0.808 | inactive |
| CMTM4 | 1 | -0.425 | inactive |
| NOL8 | 1 | 1.06 | active |
| NIT2 | 1 | -1.97 | active |
| TTC8 | 1 | 0.64 | inactive |
| GLB1L | 1 | -0.45 | inactive |
| FNDC5 | 1 | 0.988 | inactive |
| DRC9 | 1 | -0.989 | inactive |
| NLRC3 | 1 | 1.54 | active |
| IGHMBP2 | 1 | -1.19 | active |
| RIMS1 | 1 | 1.55 | active |
| SLA | 1 | -0.339 | inactive |
| ESYT3 | 1 | -1.57 | active |
| NUS1 | 1 | -0.209 | inactive |
| FGD2 | 1 | -0.856 | inactive |
| LILRB5 | 1 | -0.733 | inactive |
| TDRD9 | 1 | -0.656 | inactive |
| GFM1 | 1 | -1.32 | active |
| ITGB6 | 1 | 1.27 | active |
| CST8 | 1 | -0.334 | inactive |
| SYT2 | 1 | 0.734 | inactive |
| TAS2R10 | 1 | -0.395 | inactive |
| NEBL | 1 | 0.611 | inactive |
| NEBL | 2 | -1.58 | active |
| POT1 | 1 | -0.715 | inactive |
| ING3 | 1 | -1.81 | active |
| APOBEC3D | 1 | -1.33 | active |
| OR10P1 | 1 | -1.05 | active |
| MAB21L3 | 1 | -1.16 | active |
| LY96 | 1 | -0.827 | inactive |
| DEFB134 | 1 | 1.05 | active |
| IER3IP1 | 1 | 1.11 | active |
| CEP97 | 1 | -0.787 | inactive |
